Assay: xn = mol fraction of the nth substance listed
Conditions: 101 kPa

CCC[N+]1(C)CCCC1.O=S(=O)(F)[N-]S(=O)(=O)F + O=S(=O)(F)[N-]S(=O)(=O)F.[K+]
Conditions | electrical conductivity [S/m] | mass density [kg/m3] | viscosity [mPa·s]
258 K, x2 = 0.25 | 0.045 | – | –
263 K, x2 = 0.1 | 0.15 | – | –
263 K, x2 = 0.15 | 0.12 | – | –
263 K, x2 = 0.2 | 0.088 | – | –
263 K, x2 = 0.25 | 0.065 | – | –
268 K, x2 = 0.05 | 0.23 | – | –
268 K, x2 = 0.1 | 0.19 | – | –
268 K, x2 = 0.15 | 0.15 | – | –
268 K, x2 = 0.2 | 0.12 | – | –
268 K, x2 = 0.25 | 0.091 | – | –
273 K, x2 = 0.05 | 0.29 | – | 125
273 K, x2 = 0.15 | 0.2 | – | 200
273 K, x2 = 0.2 | 0.16 | – | 256
273 K, x2 = 0.25 | 0.12 | – | 342
278 K, x2 = 0.05 | 0.36 | 1374 | 100
278 K, x2 = 0.1 | 0.31 | 1393.5 | 123
278 K, x2 = 0.15 | 0.26 | 1414.6 | 155
278 K, x2 = 0.2 | 0.21 | 1437 | 195
278 K, x2 = 0.25 | 0.16 | 1461 | 255
283 K, x2 = 0.05 | 0.44 | 1369.8 | 81.3
283 K, x2 = 0.1 | 0.38 | 1389.3 | 98.2
283 K, x2 = 0.15 | 0.32 | 1410.3 | 123
283 K, x2 = 0.2 | 0.26 | 1432.6 | 152
283 K, x2 = 0.25 | 0.21 | 1456.6 | 196
288 K, x2 = 0 | 0.62 | 1347.2 | 56.9
288 K, x2 = 0.05 | 0.53 | 1365.7 | 67
288 K, x2 = 0.1 | 0.47 | 1385.1 | 80
288 K, x2 = 0.15 | 0.39 | 1406.1 | 98.1
288 K, x2 = 0.2 | 0.32 | 1428.4 | 120
293 K, x2 = 0 | 0.72 | 1343.1 | 47.8
293 K, x2 = 0.05 | 0.63 | 1361.6 | 55.7
293 K, x2 = 0.1 | 0.56 | 1381 | 65.9
293 K, x2 = 0.2 | 0.4 | 1424.1 | 96.8
293 K, x2 = 0.25 | 0.33 | 1447.9 | 121
298 K, x2 = 0 | 0.84 | 1339.1 | 40.6
298 K, x2 = 0.05 | 0.73 | 1357.5 | 46.9
298 K, x2 = 0.1 | 0.66 | 1376.9 | 55.6
298 K, x2 = 0.15 | 0.57 | 1397.7 | 66
298 K, x2 = 0.2 | 0.48 | 1419.8 | 78.2
298 K, x2 = 0.25 | 0.4 | 1443.6 | 98.4
303 K, x2 = 0 | 0.97 | 1335.1 | 34.8
303 K, x2 = 0.1 | 0.77 | 1372.7 | 46.9
303 K, x2 = 0.15 | 0.67 | 1393.5 | 54.9
303 K, x2 = 0.2 | 0.57 | 1415.6 | 64.7
303 K, x2 = 0.25 | 0.48 | 1439.3 | 79.4
308 K, x2 = 0 | 1.1 | 1331.1 | 30
308 K, x2 = 0.05 | 0.98 | 1349.5 | 34.2
308 K, x2 = 0.1 | 0.89 | 1368.7 | 39.9
308 K, x2 = 0.2 | 0.67 | 1411.4 | 54.1
308 K, x2 = 0.25 | 0.57 | 1435 | 65.7
313 K, x2 = 0 | 1.25 | 1327.2 | 26.1
313 K, x2 = 0.05 | 1.11 | 1345.4 | 29.8
313 K, x2 = 0.1 | 1.02 | 1364.6 | 34.3
313 K, x2 = 0.15 | 0.91 | 1385.2 | 39.4
313 K, x2 = 0.2 | 0.79 | 1407.2 | 45.6
318 K, x2 = 0.05 | 1.26 | 1341.4 | 26
318 K, x2 = 0.1 | 1.16 | 1360.5 | 29.6
318 K, x2 = 0.15 | 1.04 | 1381.1 | 33.8
318 K, x2 = 0.2 | 0.91 | 1403.1 | 38.9
318 K, x2 = 0.25 | 0.79 | 1426.6 | 46.7
323 K, x2 = 0.1 | 1.31 | 1356.5 | 25.8
323 K, x2 = 0.15 | 1.18 | 1377.1 | 29.1
323 K, x2 = 0.2 | 1.04 | 1398.9 | 33.4
323 K, x2 = 0.25 | 0.91 | 1422.4 | 39.8
328 K, x2 = 0 | 1.74 | 1315.3 | 17.8
328 K, x2 = 0.05 | 1.58 | 1333.5 | 19.8
328 K, x2 = 0.1 | 1.47 | 1352.5 | 22.6
328 K, x2 = 0.15 | 1.33 | 1373 | 25.4
328 K, x2 = 0.2 | 1.18 | 1394.8 | 28.9
328 K, x2 = 0.25 | 1.04 | 1418.2 | 33.6
333 K, x2 = 0.05 | 1.76 | 1329.6 | 17.5
333 K, x2 = 0.1 | 1.64 | 1348.5 | 19.8
333 K, x2 = 0.15 | 1.5 | 1368.9 | 22.2
333 K, x2 = 0.25 | 1.18 | 1414 | 29.3
338 K, x2 = 0 | 2.12 | 1307.6 | 14.2
338 K, x2 = 0.05 | 1.94 | 1325.6 | 15.6
338 K, x2 = 0.1 | 1.82 | 1344.5 | 17.5
338 K, x2 = 0.15 | 1.67 | 1364.9 | 19.6
338 K, x2 = 0.2 | 1.5 | 1386.6 | 22
338 K, x2 = 0.25 | 1.33 | 1409.8 | 25.4
343 K, x2 = 0 | 2.32 | 1303.8 | 12.8
343 K, x2 = 0.05 | 2.13 | 1321.7 | 14
343 K, x2 = 0.1 | 2.01 | 1340.6 | 15.6
343 K, x2 = 0.15 | 1.85 | 1360.9 | 17.3
343 K, x2 = 0.2 | 1.67 | 1382.5 | 19.4
348 K, x2 = 0 | 2.53 | 1300 | 11.5
348 K, x2 = 0.05 | 2.34 | 1317.8 | 12.6
348 K, x2 = 0.1 | 2.21 | 1336.6 | 14
348 K, x2 = 0.15 | 2.04 | 1356.9 | 15.5
348 K, x2 = 0.2 | 1.85 | 1378.4 | 17.2
348 K, x2 = 0.25 | 1.66 | 1401.6 | 19.8
353 K, x2 = 0 | 2.75 | 1296.2 | 10.5
353 K, x2 = 0.05 | 2.55 | 1313.9 | 11.4
353 K, x2 = 0.15 | 2.24 | 1352.9 | 13.9
353 K, x2 = 0.2 | 2.04 | 1374.4 | 15.4
358 K, x2 = 0 | 2.98 | 1292.4 | 9.6
358 K, x2 = 0.1 | 2.64 | 1328.8 | 11.5
358 K, x2 = 0.2 | 2.24 | 1370.3 | 13.8
358 K, x2 = 0.25 | 2.05 | 1393.4 | 15.6
363 K, x2 = 0 | 3.22 | 1288.7 | 8.8
363 K, x2 = 0.05 | 3.01 | 1306.3 | 9.4
363 K, x2 = 0.1 | 2.87 | 1325 | 10.4
363 K, x2 = 0.15 | 2.68 | 1345 | 11.3
363 K, x2 = 0.2 | 2.46 | 1366.4 | 12.5
363 K, x2 = 0.25 | 2.24 | 1389.3 | 14.1
368 K, x2 = 0 | 3.47 | – | 8.1
368 K, x2 = 0.05 | 3.25 | – | 8.7
368 K, x2 = 0.1 | 3.1 | – | 9.6
368 K, x2 = 0.2 | 2.67 | – | 11.4
368 K, x2 = 0.25 | 2.42 | – | 12.8
373 K, x2 = 0 | 3.74 | – | 7.6
373 K, x2 = 0.05 | 3.5 | – | 8
373 K, x2 = 0.1 | 3.34 | – | 8.8
373 K, x2 = 0.15 | 3.14 | – | 9.5
373 K, x2 = 0.2 | 2.9 | – | 10.4
373 K, x2 = 0.25 | 2.61 | – | 11.5
378 K, x2 = 0 | 4.01 | – | 7
378 K, x2 = 0.15 | 3.38 | – | 8.8
378 K, x2 = 0.2 | 3.14 | – | 9.5
378 K, x2 = 0.25 | 2.87 | – | 10.5
383 K, x2 = 0 | 4.3 | – | 6.5
383 K, x2 = 0.05 | 4.05 | – | 6.9
383 K, x2 = 0.1 | 3.88 | – | 7.4
383 K, x2 = 0.15 | 3.63 | – | 8.1
383 K, x2 = 0.2 | 3.38 | – | 8.7
388 K, x2 = 0 | 4.61 | – | 6.1
388 K, x2 = 0.05 | 4.35 | – | 6.4
388 K, x2 = 0.1 | 4.15 | – | 6.9
388 K, x2 = 0.15 | 3.88 | – | 7.5
388 K, x2 = 0.2 | 3.63 | – | 8
393 K, x2 = 0 | 4.95 | – | 5.7
393 K, x2 = 0.05 | 4.67 | – | 6
393 K, x2 = 0.1 | 4.43 | – | 6.5
393 K, x2 = 0.15 | 4.14 | – | 6.9
393 K, x2 = 0.2 | 3.88 | – | 7.4
393 K, x2 = 0.25 | 3.59 | – | 8.2

From a compilation of properties of binary mixtures (doi:10.1021/acs.jpcc.7b06523)
